Results of unrelated studies side by side (data: NIAID ChemDB).

Common to all: toxicity to cultured cells; cells: HEL; measure: CC50

An empty or dashed field is not shown. CCn: concentration that lowers growth or viability of the cells by n%. Conditions beyond the fields shown may differ between rows.

compound,method,result
O=c1nc2oc(-c3ccccc3)cc2cn1C1CC[C@@H](CO)O1,,>200 µM
CCCCCCc1cc2cn([C@H]3C[C@H](O)[C@@H](CO)O3)c(=O)nc2o1,,>200 µM
Nc1ncnc2c1ccn2[C@@H]1C[C@H](O)[C@@H](O)[C@H]1O,,>200 µg/mL
CC(C)[C@H](NC(=O)n1nnc2ccccc21)C(=O)NC1CCCCC1,,90 µg/mL
CCCCCCCC#Cc1cn(S(=O)(=O)c2ccc(C)cc2)c(=O)[nH]c1=O,,98 µM
O=C(NC1CCCCC1)[C@H](Cc1ccccc1)NC(=O)n1nnc2ccccc21,,33.6 µg/mL
COC(=O)[C@]1(C)CCC[C@]2(C)c3cc(Br)c4nc(C(F)(F)F)[nH]c4c3CCC12,,0.7 µg/mL
O=C(COc1cccc2ccccc12)NN=Cc1ccccc1Cl,,62.7 µg/mL
O=C(NC(c1ccccc1)c1ccccc1)[C@H](Cc1ccccc1)NC(=O)n1nnc2ccccc21,MTT,17.3 µg/mL
CCCCCCCCCCCCc1cc2cn([C@H]3C[C@H](O)[C@@H](CO)O3)c(=O)nc2s1,,49 µM
Nc1ncnc2c1ncn2[C@@H]1O[C@H](C(O)O)[C@@H](O)[C@@H]1O,,>50 µg/mL
CCCCN1CCCC1C12CC3CC(CC(C3)C1)C2,,>50 µg/mL
Nc1ncnc2c1ncn2[C@@H]1O[C@H](/C=N/O)[C@@H](O)[C@@H]1O,,34 µg/mL
CNC1(C23CC4CC(CC(C4)C2)C3)CCCC1,,≥100 µg/mL
C#CCCCc1cc2cn([C@H]3C[C@H](O)[C@@H](CO)O3)c(=O)nc2o1,,>200 µM
COC(=O)[C@]1(C)CCC[C@]2(C)c3cc(Br)c4nc[nH]c4c3CCC12,,3.9 µg/mL
CCCCc1cc2cn(COCCO)c(=O)nc2o1,,>200 µM
CCOC(Cn1c(N)nc2c(ncn2[C@@H]2O[C@H](CO)[C@@H](O)[C@H]2O)c1=O)OCC,,>90 µg/mL
CC(C)C1NC(=O)N(C2CCCCC2)C1=O,MTT,>50 µg/mL
CCCCCC#Cc1c[nH]c(=O)[nH]c1=O,,114 µM
CCCCCCCCCCCc1cc2cn([C@H]3C[C@H](O)[C@@H](CO)O3)c(=O)nc2o1,,>200 µM
O=c1c2ncn(COCCO)c2[nH]c2nccn12,,>90 µg/mL
CCCCc1cc2cnc(=O)[nH]c2o1,,>200 µM
Nc1ncnc2c1ncn2[C@H]1C[C@H](O)[C@@H](/C=N/O)O1,,14 µg/mL
C1CNC(C23CC4CC(CC(C4)C2)C3)C1,,≥200 µg/mL
CC1(C)[C@@H](CO)CC[C@@]1(C)Cn1nnc2c(N)ncnc21,,>50 µg/mL
O=C(COc1cccc2ccccc12)NN=Cc1cccc(Br)c1,,48.6 µg/mL
COC(=O)[C@]1(C)CCC[C@]2(C)c3cc(Br)c4[nH]ccc4c3CCC12,,12.5 µg/mL
COc1ccc(C=NNC(=O)COc2cccc3ccccc23)cc1O,,27.7 µg/mL
CCCCCCc1cc2cn([C@H]3C[C@H](O)[C@@H](CO)O3)c(=O)nc2s1,,>200 µM
Nc1nc(=O)n([C@@H]2CC[C@H](CO)O2)cc1F,,15 µM
O=C1c2ccccc2C(=O)N1CCCC1C2CC3CC(C2)CC1C3,,34 µM
Nc1nc2c(ncn2COC(CO)CO)c(=O)[nH]1,,133.5 µg/mL
CC(=O)OCCOCN1c2ccccc2C(=O)N(Cc2ccccc2)S1(=O)=O,,100 µg/mL
CCCCCCCCc1cc2cn(COCCO)c(=O)nc2o1,,>200 µM
CN(Cc1ccc(-c2ccccc2)cc1)Cc1c(O)cc2c(c1O)-c1cc(ccc1O)[C@H]1NC(=O)[C@@H]3NC(=O)[C@H]4NC(=O)[C@@H](Cc5ccc(c(Cl)c5)Oc5cc3cc(c5O)Oc3ccc(cc3Cl)[C@@H](O)[C@H](NC1=O)C(=O)N[C@@H]2C(=O)O)NC(=O)[C@H](N)c1ccc(O)c(c1)Oc1cc(O)cc4c1,,>50 µM
O=C(COc1cccc2ccccc12)NN=Cc1cccc(Cl)c1,,58.6 µg/mL
O=c1nc2oc(CCCC3OCCCO3)cc2cn1[C@H]1C[C@H](O)[C@@H](CO)O1,,>200 µM
O=C1c2ccccc2NS(=O)(=O)N1COCCO,,160 µg/mL
O=c1c2ncn([C@@H]3O[C@H](CO)[C@@H](O)[C@H]3O)c2[nH]c2nccn12,,>90 µg/mL
O=c1nc2oc(CCOC3CCCCO3)cc2cn1[C@H]1C[C@H](O)[C@@H](CO)O1,,>40 µM
CC(C)C[C@H](NC(=O)n1nnc2ccccc21)C(=O)NCC1CCCCC1,,156 µg/mL
C[C@@H](Cn1cnc(N)nc1=O)OCP(=O)(O)O,,>50 µg/mL
COC(=O)[C@H]1NC(=O)[C@H]2NC(=O)[C@H](NC(=O)[C@@H]3NC(=O)[C@H]4NC(=O)[C@H](NC(=O)[C@H](N)c5ccc(O)c(c5)Oc5cc4cc(O)c5C)[C@H](O)c4ccc(cc4)Oc4cc3cc(c4O)Oc3ccc(cc3)[C@H]2O[C@@H]2C[C@@H](N)[C@@H](O)[C@H](C)O2)c2ccc(O)c(c2)-c2c(O)cc(O)cc21,,>50 µM
C=CCCCCCCCCc1cc2cn([C@H]3C[C@H](O)[C@@H](CO)O3)c(=O)nc2o1,,>200 µM
CCON=C[C@H]1O[C@@H](n2cnc3c(N)ncnc32)[C@H](O)[C@@H]1O,,>50 µg/mL
CN(C)CC1CCC(C23CC4CC(CC(C4)C2)C3)[C@H]1c1ccccc1,,>50 µg/mL
Cc1cn([C@@H]2OC(O[Si](C)(C)C(C)(C)C)C3(OS(=O)(=O)C=C3NCCC(=O)OCc3ccccc3)C2O[Si](C)(C)C(C)(C)C)c(=O)n(C)c1=O,,>200 µM
Nc1ncn(CCOCP(=O)(O)O)c(=O)n1,,>50 µg/mL
CCCCCCCCc1cc2cn([C@H]3CC[C@@H](CO)O3)c(=O)nc2o1,,112 µM
CCCCCCCCc1cc2cn([C@H]3C[C@H](O)[C@@H](CO)O3)c(=O)nc2o1,,≥50 µM
CCCCCc1ccc(-c2cc3cn(C4CC[C@@H](CO)O4)c(=O)nc3o2)cc1,,>200 µM
CC1(C)CCCN1CC12CC3CC(CC(C3)C1)C2,,>50 µg/mL
Nc1ncnc2c1ncn2[C@@H]1C=C(CO)[C@@H](O)[C@H]1O,,>20 µg/mL
CCCCCCc1cc2cn(COCCO)c(=O)nc2o1,,>200 µM
C#CCCCCCc1cc2cn([C@H]3C[C@H](O)[C@@H](CO)O3)c(=O)nc2o1,,>200 µM
O=C(COc1cccc2ccccc12)NN=Cc1ccccc1[N+](=O)[O-],,100 µg/mL
O=C1c2ccccc2[C@@]2(O)C3C4C[C@H]5CC(C[C@H]3C5)C4N12,,73 µg/mL
CC1(C)[C@@H](CO)CC[C@@]1(C)Cn1cc(Br)c(=O)[nH]c1=O,,>50 µg/mL
CCCc1ccc(-c2cc3cn(C4CC[C@@H](CO)O4)c(=O)nc3o2)cc1,,>200 µM
Cc1cn2c(=O)c3ncn(COC(CO)CO)c3nc2[nH]1,,>90 µg/mL
O=c1nc2oc(CCCC3OCCO3)cc2cn1[C@H]1C[C@H](O)[C@@H](CO)O1,,>200 µM
CCCCCCC#Cc1c[nH]c(=O)[nH]c1=O,,132 µM
CCCCCc1cc2cn([C@H]3C[C@H](O)[C@@H](CO)O3)c(=O)nc2o1,,>50 µM
CC(=O)OCCOCN1c2ccccc2C(=O)NS1(=O)=O,,>200 µg/mL
Nc1nc2c(ncn2COC(CO)CO)c(=O)[nH]1,,100 µg/mL
O=C1c2ccccc2N(COCCO)S(=O)(=O)N1Cc1ccccc1,,125 µg/mL
O=C(COc1cccc2ccccc12)NN=Cc1ccc(F)cc1,,71.6 µg/mL
C=C[C@@H](O)C1=C[C@@H](n2cnc3c(N)ncnc32)[C@H](O)[C@@H]1O,,>50 µg/mL
N[C@H]1C(=O)N[C@@H]2Cc3ccc(c(Cl)c3)Oc3cc4cc(c3OCc3ccc(-c5ccccc5)cc3)Oc3ccc(cc3Cl)[C@@H](O)[C@@H]3NC(=O)[C@H](NC(=O)[C@@H]4NC(=O)[C@@H](NC2=O)c2cc(O)cc(c2)Oc2cc1ccc2O)c1ccc(O)c(c1)-c1c(O)cc(O)cc1[C@@H](C(=O)O)NC3=O,,48 µM
C#C[C@@H](O)C1=C[C@@H](n2cnc3c(N)ncnc32)[C@H](O)[C@@H]1O,,>50 µg/mL
O=c1[nH]c(=O)n([C@H]2C[C@H](O)[C@@H](CO)O2)cc1-c1cc(-c2ccc(Cl)cc2)no1,,>200 µg/mL
CC1(C)[C@@H](CO)CC[C@@]1(C)Cn1ccc(=O)[nH]c1=O,,>50 µg/mL
Nc1ncnc2c1ncn2[C@@H]1O[C@H](C=NOCc2ccccc2)[C@@H](O)[C@H]1O,,33 µg/mL
CCCCCCCCCCCc1cc2cn(COCCO)c(=O)nc2[nH]1,,41 µM
Nc1ncnc2c1ncn2[C@@H]1O[C@H](/C=N/O)C[C@H]1O,,>50 µg/mL
COc1ccc(OC)c(C=NNC(=O)COc2cccc3ccccc23)c1,,56.9 µg/mL
C=CCCCCc1cc2cn([C@H]3C[C@H](O)[C@@H](CO)O3)c(=O)nc2o1,,>200 µM
CC(=O)O[C@@H]1CC[C@H](O)[C@@]2(C)CC/C(C(C)C)=C\C=C(/C)CCC1O2,,>50 µg/mL

Repeating the final 9 entries:

compound	method	result
C#C[C@@H](O)C1=C[C@@H](n2cnc3c(N)ncnc32)[C@H](O)[C@@H]1O		>50 µg/mL
O=c1[nH]c(=O)n([C@H]2C[C@H](O)[C@@H](CO)O2)cc1-c1cc(-c2ccc(Cl)cc2)no1		>200 µg/mL
CC1(C)[C@@H](CO)CC[C@@]1(C)Cn1ccc(=O)[nH]c1=O		>50 µg/mL
Nc1ncnc2c1ncn2[C@@H]1O[C@H](C=NOCc2ccccc2)[C@@H](O)[C@H]1O		33 µg/mL
CCCCCCCCCCCc1cc2cn(COCCO)c(=O)nc2[nH]1		41 µM
Nc1ncnc2c1ncn2[C@@H]1O[C@H](/C=N/O)C[C@H]1O		>50 µg/mL
COc1ccc(OC)c(C=NNC(=O)COc2cccc3ccccc23)c1		56.9 µg/mL
C=CCCCCc1cc2cn([C@H]3C[C@H](O)[C@@H](CO)O3)c(=O)nc2o1		>200 µM
CC(=O)O[C@@H]1CC[C@H](O)[C@@]2(C)CC/C(C(C)C)=C\C=C(/C)CCC1O2		>50 µg/mL